Key:
[1] = test system: grape ripe rot fungus (Glomerella cingulata); assay: Fungicidal effect test against grape ripe rot fungus (96-well microplate, turbidity); conditions: 25 ppm by volume; Vogel's medium; 25°C, 3 days; turbidity OD at 405 nm
Description: (§1) A spore suspension of gray mold fungus (Botrytis cinerea, Vogel's medium) was prepared. The 5-membered heteroaryl compound according to the embodiment of the present invention was added to dimethyl sulfoxide to obtain a chemical solution. The chemical solution and the above-described spore suspension were mixed in equal amounts (based on volume) to obtain a test solution having a concentration of the 5-membered heteroaryl compound according to the embodiment of the present invention of 25 ppm by volume. The test solution was added dropwise to a 96-well microplate (treated plot).
(§2) Dimethyl sulfoxide and the above-described spore suspension were mixed in equal amounts (based on volume) to obtain a control solution. The control solution was added dropwise to a 96-well microplate (untreated control).
(§3) These were cultured by allowing them to stand in the dark at 20°C for 5 days. The turbidity OD at a wavelength of 405 nm was measured using a microplate reader. A growth inhibition rate (%) was calculated by the following formula. Growth inhibition rate(%) = 100−100 x [formula] • {[(OD of treated plot after culturing) - (OD of treated plot before culturing)] • /[(OD of untreated control after culturing) - (OD of untreated control before culturing)]}
(§4) The turbidity was measured and the growth inhibition rate was calculated in the same manner as in the fungicidal effect test against the gray mold fungus, except that the spore suspension of gray mold fungus (Botrytis cinerea, Vogel's medium) was changed to a spore suspension of grape ripe rot fungus (Glomerella cingulata, Vogel's medium), and the temperature and period during standing were changed to 25°C and 3 days.

[2] = test system: cucumber gray mold fungus (Botrytis cinerea); assay: Control test of cucumber gray mold (sprayed seedlings); conditions: 125 ppm by mass sprayed on cucumber seedlings (cultivar "Jibai" line, cotyledon stage); lesion area rate four days after inoculation, 20°C
Description: 5 parts by mass of the 5-membered heteroaryl compound according to the embodiment of the present invention, 93.5 parts by mass of N,N-dimethylformamide, and 1.5 parts by mass of polyoxyethylene sorbitan monolaurate were mixed to obtain an emulsifiable concentrate (1) containing 5% by mass of the active ingredient.
Water was added to the above-described emulsifiable concentrate (1) to obtain a chemical solution having a concentration of the 5-membered heteroaryl compound according to the embodiment of the present invention of 125 ppm by mass or 25 ppm by mass. Subsequently, the chemical solution was sprayed onto cucumber seedlings (cultivar "Jibai" line, cotyledon stage) grown in seedling pots, and then air-dried. Thereafter, a conidial suspension of cucumber gray mold fungus (Botrytis cinerea) was drop-inoculated onto the cucumber seedlings (treated plot). As a control, the conidial suspension of cucumber gray mold fungus (Botrytis cinerea) was drop-inoculated onto cucumber seedlings onto which the chemical solution had not been sprayed (untreated control). The seedlings were allowed to stand in a humid chamber at 20°C. Four days after inoculation, the leaves of the cucumber seedlings were visually observed, and a control value was calculated from the lesion area rate by the following formula. Control value(%) =; 100−{Lesionarearateintreatedplot/Lesionarearateinuntreatedcontrol} x; 100 [formula]

[3] = test system: wheat powdery mildew fungus (Erysiphe graminis f. sp. tritici); assay: Control test of wheat powdery mildew (sprayed seedlings); conditions: 125 ppm by mass sprayed on wheat seedlings (cultivar "Chihoku", 1 or 2 leaf stage); lesion area rate six days after inoculation, 20°C
Description: Water was added to the emulsifiable concentrate (1) so that the concentration of the 5-membered heteroaryl compound according to the embodiment of the present invention was 125 ppm by mass, thereby obtaining a chemical solution. Subsequently, the chemical solution was sprayed onto wheat seedlings (cultivar "Chihoku", 1 or 2 leaf stage) grown in seedling pots, and air-dried. Thereafter, conidia of wheat powdery mildew fungus (Erysiphe graminis f. sp. tritici) were sprinkled and inoculated (treated plot). As a control, the conidia of wheat powdery mildew fungus (Erysiphe graminis f. sp. tritici) were sprinkled and inoculated onto wheat seedlings onto which the chemical solution had not been sprayed (untreated control). The seedlings were allowed to stand in a greenhouse at 20°C. Six days after inoculation, the leaves of the wheat seedlings were visually observed to determine the lesion area rate, and a control value was calculated in the same manner as in the previous test.

[4] = test system: apple anthracnose fungus (Colletotrichum acutatum); assay: Fungicidal effect test against apple anthracnose fungus (96-well microplate, turbidity); conditions: 25 ppm by volume; Czapek medium; 25°C, 4 days; turbidity OD at 405 nm
Description: as §1, §2, §3
as §4, with “apple anthracnose” for “grape ripe rot”, “(Colletotrichum acutatum, Czapek” for “(Glomerella cingulata, Vogel's”, “4” for “3”

[5] = test system: apple scab fungus (Venturia inaequalis); assay: Control test of apple scab (sprayed seedlings); conditions: 125 ppm by mass sprayed on apple seedlings (cultivar "Orin", 3 or 4 leaf stage); lesion area rate twelve to fourteen days after inoculation, 20°C
Description: Water was added to the emulsifiable concentrate (1) so that the concentration of the 5-membered heteroaryl compound according to the embodiment of the present invention was 125 ppm by mass, thereby obtaining a chemical solution. Subsequently, the chemical solution was sprayed onto apple seedlings (cultivar "Orin", 3 or 4 leaf stage) grown in seedling pots, and then air-dried. Thereafter, conidia of the apple scab fungus (Venturia inaequalis) were inoculated onto the seedlings (treated plot). As a control, the same inoculation was performed on apple seedlings onto which the chemical solution had not been sprayed (untreated control). The seedlings were allowed to stand in a humid chamber at 20°C under alternating 12-hour light and dark cycles.
Twelve to fourteen days after inoculation, the leaves of the apple seedlings were visually observed, and a control value was calculated from the lesion area rate using the formula employed for calculating the control value in the control test for cucumber gray mold described above.

[6] = test system: apple alternaria blotch fungus (Alternaria alternata); assay: Fungicidal effect test against apple alternaria blotch fungus (96-well microplate, turbidity); conditions: 25 ppm by volume; YBA medium; 25°C, 5 days; turbidity OD at 405 nm
Description: as §1, §2, §3
as §4, with “apple alternaria blotch” for “grape ripe rot”, “(Alternaria alternata, YBA” for “(Glomerella cingulata, Vogel's”, “temperature” for “temperature and period”, “was” for “were”, “25°C.” for “25°C and 3 days.”

[7] = test system: gray mold fungus (Botrytis cinerea); assay: Fungicidal effect test against gray mold fungus (96-well microplate, turbidity); conditions: 25 ppm by volume; Vogel's medium; dark, 20°C, 5 days; turbidity OD at 405 nm
Description: as §1, §2, §3

| Structure (SMILES) | growth inhibition rate [1] | control value [2] | control value [3] | growth inhibition rate [4] | control value [5] | growth inhibition rate [6] | growth inhibition rate [7] |
| --- | --- | --- | --- | --- | --- | --- | --- |
| Cc1ccc(CONC(=O)c2c(Oc3cccc(C(F)(F)F)c3)nnn2C(C)(C)C)c(Cl)c1 | ≥ 75% | ≥ 75% | ≥ 75% | ≥ 75% | ≥ 75% | ≥ 75% | ≥ 75% |
| Cc1ccc(CONC(=O)c2c(Oc3cccnc3)nnn2C(C)(C)C)c(C)c1 | – | – | ≥ 75% | – | – | – | – |
| COc1cc(C)ccc1CONC(=O)c1c(Oc2cccc(Br)c2)nnn1C(C)(C)C | – | – | ≥ 75% | – | ≥ 75% | – | – |
| Cc1ccc(CONC(=O)c2c(Oc3ccccc3)nnn2C(C)(C)C)c(C)c1 | – | ≥ 75% | – | – | – | – | – |
| Cc1ccc(CONC(=O)c2c(Oc3cccc(C(F)(F)F)c3)nnn2C(C)(C)C)c(C)c1 | ≥ 75% | ≥ 75% | ≥ 75% | ≥ 75% | ≥ 75% | ≥ 75% | ≥ 75% |
| Cc1ccc(CONC(=O)c2c(Oc3cccc(Br)c3F)nnn2C(C)(C)C)c(C)c1 | – | ≥ 75% | – | – | – | – | – |
| CCC(C)(C)n1nnc(Oc2cccc(C)c2)c1C(=O)NOCc1ccc(C)cc1C | ≥ 75% | – | – | ≥ 75% | – | ≥ 75% | ≥ 75% |
| Cc1ccc(CONC(=O)c2c(Oc3cccc(Br)c3)nnn2C(C)(C)C)c(C)c1 | – | ≥ 75% | ≥ 75% | – | – | – | – |
| COc1ccc(CONC(=O)c2c(Oc3cccc(Cl)c3)nnn2C(C)(C)C)c(C)n1 | – | – | ≥ 75% | – | – | – | – |
| Cc1ccc(CONC(=O)c2c(Oc3cccc(Cl)c3)nnn2C(C)(C)C)c(C)c1 | – | ≥ 75% | ≥ 75% | – | – | – | – |
